Test results published in PubChem BioAssay AID449762 (Southern Research Specialized Biocontainment Screening …, 2010).
pIC50: −log10 of the molar value. Inconclusive results are not listed.

Tested on: M. tuberculosis H37Rv growth inhibition, 7H9 media
Experiment: M. tuberculosis growth inhibition, HTS (AID 449762);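 further: bacterial growth assessed after seven days of incubation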

Compound O=C(OC1CN2CCC1CC2)C1c2ccccc2Oc2ccccc21 (stereo unspecified) has a pIC50 of 5.09.
